Compound potency records, mixed from different reports. Data source: NIAID ChemDB in PubChem.

All rows: growth or infection tests; organism: Mycobacterium tuberculosis

ECn: concentration that inhibits the pathogen or its effect by n%. Blank or dashed fields: not listed here. MIC bound comes from a single tested concentration. Percent inhibition refers to the dose given; in toxicity tests it is the harm to the cells. Rows are shuffled and stem from different studies. A number after MIC or MFC names an inhibition level or a share of isolates.

SMILES,strain,read-out,changes,cell line,conditions,method,dose,result
Nc1c(Br)cc(Br)c2c1[nH]c(=O)c1ccccc12,H37Rv,MIC bound,-,-,-,BACTEC,-,>12.5 µg/mL
COc1cc(OC)c2c(c1)OC(c1ccc(O)cc1)CC2=O,H37Rv,inhibition,-,-,-,-,12.5 µg/mL,0%
O=[N+]([O-])c1cccc2cccnc12,H37Rv,inhibition,-,-,-,-,6.25 µg/mL,0%
c1ccc(-c2ccc(CNc3ccc(N4CCSCC4)cc3)cc2)cc1,103471,MIC,-,-,-,-,-,>16 µg/mL
O=C(N/N=C/c1coc2ccc(Cl)cc2c1=O)c1ccncc1,H37Rv,MIC,-,-,-,-,-,1 µg/mL
O=C(/C=C/c1ccc(Cl)cc1)Oc1ccc(/C=C2\CCCCC2=O)cc1,H37Rv,EC50,-,-,-,-,-,>12.5 µg/mL
COc1cc(OC)c2c(O)c3c(c(-c4c5c(c(O)c6c(OC)cc(OC)cc46)C(=O)CC(C)(O)O5)c2c1)OC(C)(O)CC3=O,H37Rv,MIC,-,-,-,-,-,>180 µM
O=c1c2ccccc2c2nccc3c4ccccc4n1c32,H37Rv,inhibition,-,-,-,BACTEC,12.5 µg/mL,6%
O=C(Nc1ccc(C(F)(F)F)cc1)c1cccc2nc3ccccc3nc12,H37Rv 27294,MIC,-,-,-,-,-,0.39 µg/mL
FC(F)(F)c1cc(NC(=S)SCc2ccc(Cl)cc2)ccc1Cl,H37Rv,inhibition,-,-,-,resazurin,6.25 µg/mL,1%
CC1COc2c(N3CCN(C)CC3)c(F)cc3c(=O)c(C(=O)O)cn1c23,25 strains,MIC50,-,-,-,-,-,0.78 µg/mL
CCCCS(=O)(=O)Nc1ccc2[nH]c(C(=O)N[C@@H](C)c3ccccc3)c(C)c2c1,H37Rv,MIC90,-,-,-,resazurin,-,6.2 µM
Nc1nccnc1C(=O)NO,H37Rv,MIC bound,-,-,-,BACTEC,-,>12.5 µg/mL
Clc1ccc(CNc2ccc(-n3ccnc3)cc2)cc1,103471,MIC,-,-,-,-,-,4 µg/mL
CCn1cc(C(=O)O)c(=O)c2cc(F)c(N3CCN(C/C(=N/O)c4ccc(F)cc4)CC3)nc21,H37Rv,EC50,-,-,-,-,-,>6.25 µg/mL
Cc1ccnc(NC(=O)c2cccc3nc4ccccc4nc23)c1,H37Rv 27294,MIC,-,-,-,-,-,0.78 µg/mL
O=C(N/N=C/c1cccc(F)c1)c1ccncc1,Isoniazid-resistant,MBC,-,-,-,-,-,>1.6 µg/mL
CCCCS(=O)(=O)Nc1ccc2[nH]c(CNS(C)(=O)=O)c(C)c2c1,H37Rv,MIC90,-,-,-,resazurin,-,>100 µM
CCCCNc1nc(N)nc(Nc2ccc(Br)cc2)c1N=O,H37Rv,MIC bound,-,-,-,BACTEC,-,>12.5 µg/mL
COc1cc(OC)c2c(O)c3c(=O)cc(C)oc3c(-c3c4cc(=O)cc(OC)c4c(O)c4c(O)cc(C)oc34)c2c1,H37Rv,MIC,-,-,-,-,-,43 µM
O=C(/C=C/c1ccccc1)Oc1ccc(/C=C2\CCC/C(=C\c3ccc(OC(=O)/C=C/c4ccccc4)cc3)C2=O)cc1,H37Rv,inhibition,-,-,-,-,12.5 µg/mL,0%
CC1=CCC/C(C)=C/[C@H]2OC(=O)[C@@H](C)[C@@H]2CC1,-,MIC,-,-,-,-,-,128 µg/mL
COc1cc(O)cc2cc3c(c(O)c12)C(=O)CC(C)(O)O3,H37Rv,MIC,-,-,-,-,-,>180 µM
Cc1cc2nc3ccc(N=Nc4ccc(N(C)C)cc4)cc3n(-c3ccccc3)c-2cc1=N,PAS-R,MIC,-,-,-,-,-,≤0.1 µg/mL
Cc1ccc(C(=O)Oc2ccc(/C=C3\CCCCC3=O)cc2)cc1,H37Rv,EC50,-,-,-,-,-,<12.5 µg/mL
CNC(=O)OCC1=CC(=O)C=C(OC)C1=O,H37Rv,MIC bound,-,-,-,BACTEC,-,>12.8 µg/mL
CCCCS(=O)(=O)Nc1ccc2[nH]c(C(=O)NC3COC3)c(C)c2c1,H37Rv,MIC90,-,-,-,resazurin,-,100 µM
CC(NNC(=O)c1ccncc1)c1ccc(F)cc1,H37Rv,MIC,-,-,-,-,-,1.6 µg/mL
COc1ccc(C(=O)CN2CCN(c3cc4c(cc3F)c(=O)c(C(=O)O)cn4C3CC3)CC2)cc1,H37Rv,inhibition,-,-,-,-,6.25 µg/mL,15%
O=C(N/N=C/c1cccc(C(F)(F)F)c1)c1ccncc1,Isoniazid-resistant,MIC,-,-,-,-,-,>3.2 µg/mL
O=C1CC(c2ccccc2)Oc2ccc(F)cc21,H37Rv,EC50,-,-,-,-,-,>12.5 µg/mL
O=c1c(/C=N/c2nc3c(Cl)cccc3s2)coc2ccc(Cl)cc12,H37Rv,MIC,-,-,-,-,-,10 µg/mL
O=C(Nc1ccccc1C(F)(F)F)c1cccc2nc3ccccc3nc12,H37Rv 27294,MIC,-,-,-,-,-,0.39 µg/mL
N#C[B][n+]1ccc(C(=O)NNCC(F)(F)F)cc1,Erdman,EC50,-,Macrophages,inside macrophages,colony count,-,<1.14 µg/mL
O=Cc1ccccc1NC1=CC(=O)N(c2ccccc2)C1=O,H37Rv,MIC bound,-,-,-,BACTEC,-,>12.8 µg/mL
c1ccc(-c2ccc(CNc3ccc(N4CCOCC4)cc3)cc2)cc1,103471,MIC,-,-,-,-,-,4 µg/mL
C=C1C(=O)O[C@@H]2[C@H]3C(C)=CC[C@@H](O)[C@]3(C)CC[C@@H]12,-,MIC,-,-,-,-,-,64 µg/mL
O=C1OC(c2ccccc2)=N/C1=C\c1ccc(Cl)cc1Cl,H37Rv,inhibition,-,-,-,BACTEC,12.5 µg/mL,3%
N#Cc1nc2cc(C(F)(F)F)ccc2nc1Cl,H37Rv,EC50,-,-,-,-,-,>12.5 µg/mL
CCNC1Oc2cc(Cl)ccc2C(=O)/C1=C/Nc1ccc2[nH]c(=S)sc2c1,H37Rv,MIC,-,-,-,-,-,2.5 µg/mL
COc1ccc(/C=C/C(=O)c2ccc(OC)cc2O)cc1,-,EC50,-,-,-,-,-,>12.5 µg/mL
C/C(=N\NC(=O)c1ccncc1)c1ccc(F)cc1,Ethambutol-resistant,MIC,-,-,-,-,-,0.1 µg/mL
O=C(Nc1ccc(N2CCSCC2)cc1)c1ccc(-c2ccccc2)cc1,103471,MIC,-,-,-,-,-,>16 µg/mL
O=C1OC(/C=C/c2ccccc2)=NC/1=C\c1ccccc1,H37Rv,MIC bound,-,-,-,BACTEC,-,>12.5 µg/mL
O=C1/C(=C/c2ccc(OC(=O)c3ccc(Cl)cc3)cc2)CCC/C1=C\c1ccc(OC(=O)c2ccc(Cl)cc2)cc1,H37Rv,EC50,-,-,-,-,-,>12.5 µg/mL
CC1=CC(=O)c2c(O)cccc2C1=O,MTCS2,MIC,-,-,-,-,-,39.06 µg/mL
CCCCS(=O)(=O)Nc1ccc2[nH]c(C(=O)O)c(C)c2c1,H37Rv,MIC90,-,-,-,resazurin,-,>100 µM
CC(=O)c1cc([N+](=O)[O-])c2nc(C(C)C)ccc2c1C(C)C,H37Rv,inhibition,-,-,-,-,6.25 µg/mL,96%
CC(NNC(=O)c1ccncc1)c1cccc(C(F)(F)F)c1,H37Rv (thiacetazone-resistant),MIC,-,-,-,-,-,>31.25 µg/mL
O=C(N/N=C/c1coc2ccccc2c1=O)c1ccncc1,H37Rv,MIC,-,-,-,-,-,10 µg/mL
CCCCS(=O)(=O)Nc1ccc2[nH]c(C(=O)N3CCN(C)CC3)c(C)c2c1,H37Rv,MIC90,-,-,-,resazurin,-,50 µM
CC(=O)c1cc([N+](=O)[O-])c2nc(C3CCCCC3)ccc2c1C1CCCCC1,H37Rv,MIC,-,-,-,-,-,>6.25 µg/mL
O=C1CC(SC(=S)N2CCOCC2)C(=O)N1,H37Rv,MIC,-,VERO,-,-,-,2 µg/mL
O=C(C/C=C/c1ccccc1)Nc1ccccc1N1CCSCC1,103471,MIC,-,-,-,-,-,>16 µg/mL
COc1ccccc1NC(=O)C(N=Nc1ccc(S(=O)(=O)Nc2nccs2)cc1)C(C)=O,H37Rv,inhibition,-,-,-,resazurin,6.25 µg/mL,0%
CCc1ccnc2c(N)cc(C(C)=O)c(OC3CCCC3)c12,H37Rv,MIC,-,-,-,-,-,>6.25 µg/mL
C=C1OC(C2CCCCC2)=C(C(=O)OCC)C1C,H37Rv,inhibition,-,-,-,BACTEC,12.5 µg/mL,13%
O=C(Nc1cccc2ccccc12)c1cccc2nc3ccccc3nc12,H37Rv 27294,MIC,-,-,-,-,-,1.56 µg/mL
CC(=O)c1cc([N+](=O)[O-])c2nc(C(C)(C)C)ccc2c1C(C)(C)C,H37Rv,inhibition,-,-,-,-,6.25 µg/mL,15%
C=CC(O)C#CC#CC(O)/C=C\CCCCCCC,Erdman,MIC90,-,-,-,resazurin,-,6 µg/mL
CCn1cc(C(=O)O)c(=O)c2cc(F)c(N3CCN(CC(=O)c4ccc(F)cc4)CC3)cc21,H37Rv,inhibition,-,VERO,-,-,6.25 µg/mL,97%
Cc1ccc2occ(/C=N/NC(=O)c3ccncc3)c(=O)c2c1,H37Rv,MIC,-,-,-,-,-,1 µg/mL
CCCCS(=O)(=O)Nc1ccc2[nH]c(C(=O)OCC)c(C)c2c1,DRM167 16x3,MIC90,V123A DG167-resistant,-,-,resazurin,-,12.5 µM
C[C@@H]1C(=O)O[C@H]2[C@H]1CCC1(C)O[C@@H]1CC[C@@]1(C)O[C@@H]21,-,MIC,-,-,-,-,-,128 µg/mL
O=C(NNCc1cccc(C(F)(F)F)c1)c1ccncc1,Erdman,EC90,-,Macrophages,inside macrophages,colony count,-,0.005 µg/mL
CCOc1ccc(NC(=O)C(=O)CC(=O)c2sc(NNC(C)=O)nc2C)cc1,H37Rv,MIC bound,-,-,-,resazurin,-,>6.25 µg/mL
O=C1CC(c2ccccc2)Oc2ccc(Br)cc21,H37Rv,inhibition,-,-,-,-,12.5 µg/mL,0%
CCCCCCC/C=C\C(O)C#CC#CC(O)CC,Erdman,MIC90,-,-,-,resazurin,-,49.5 µg/mL
CCCCS(=O)(=O)Nc1ccc2[nH]c(C(=O)NCc3ccccc3)c(C)c2c1,H37Rv,MIC90,-,-,-,resazurin,-,1.56 µM
N#Cc1nc2cc(Cl)ccc2nc1Cl,H37Rv,EC50,-,-,-,-,-,<12.5 µg/mL
C=C1c2[nH]c3ccccc3c2C2C(CC)C1CCN2C,H37Rv,MIC,-,-,-,BACTEC,-,≥12.8 µg/mL
O=C1CC(c2cccc(Cl)c2)Oc2ccccc21,H37Rv,inhibition,-,-,-,-,12.5 µg/mL,0%
C=C1CC[C@@H](O)[C@]2(C)CC[C@@H](C(=C)CO)[C@H](O)[C@@H]12,-,MIC,-,-,-,-,-,>128 µg/mL
CC(NNC(=O)c1ccncc1)c1ccc(Cl)c(Cl)c1,Thiacetazone-resistant,MIC,-,-,-,-,-,>50 µg/mL
COc1ccc(C2=NNC(=O)C3NC(=O)C(C#N)=C(C(=O)NN)C23c2ccc(OC)cc2)cc1,H37Rv,inhibition,-,-,-,BACTEC,12.5 µg/mL,76%
COc1ccc(C2CC(=O)c3ccc(I)cc3O2)cc1,-,EC50,-,-,-,-,-,>12.5 µg/mL
O=C(Nc1ccccc1F)c1cccc2nc3ccccc3nc12,H37Rv 27294,MIC,-,-,-,-,-,1.56 µg/mL
COCCN1CCN(C(=O)c2nc3cc(C(F)(F)F)c(C)c([N+](=O)[O-])c3s2)CC1,H37Rv,MIC80,-,-,-,resazurin / absorbance,-,0.5 µg/mL
O=C1CCCC/C1=C\c1ccc(OC(=O)c2ccccc2)cc1,H37Rv,inhibition,-,-,-,-,12.5 µg/mL,66%
C=C1C(=O)O[C@@H]2/C=C(\C)CC/C=C(\C)CC[C@@H]12,-,MIC,-,-,-,-,-,32 µg/mL
Nc1ccc(C(=O)N/C(=C/c2cccc([N+](=O)[O-])c2)c2nc3ccc(Cl)cc3[nH]2)cc1,H37Rv,inhibition,-,-,-,resazurin,6.25 µg/mL,-8%
C=C1CC[C@@H](O)[C@]2(C)CC[C@H]3C(=C)C(=O)O[C@@H]3[C@@H]12,-,MIC,-,-,-,-,-,64 µg/mL
O=C1CC(c2ccccc2)Oc2cc(Cl)ccc21,H37Rv,EC50,-,-,-,-,-,>12.5 µg/mL
CCn1cc(C(=O)O)c(=O)c2cc(F)c(N3CCN(C/C(=N/O)c4ccccc4)CC3)nc21,H37Rv,inhibition,-,-,-,-,6.25 µg/mL,36%
Cc1c(C(F)(F)F)cc2nc(C3=N[C@H](C(=O)N4CCCC4)CO3)sc2c1[N+](=O)[O-],H37Rv,MBC,-,-,-,resazurin / absorbance,-,2 µg/mL
O=C(NNc1c(Cl)cc(Cl)cc1Cl)C(O)C(O)C(O)C(O)CO,H37Rv,inhibition,-,-,-,BACTEC,12.5 µg/mL,3%
O=[N+]([O-])c1cc(C(F)(F)F)cc2nc(C3=NCCO3)sc12,H37Rv,MIC80,BTZ-resistant (C387G),-,-,resazurin / absorbance,-,>64 µg/mL
C/C(=N\NC(=O)c1ccncc1)c1ccccc1F,H37Rv (thiacetazone-resistant),MIC,-,-,-,-,-,>31.25 µg/mL
O=C(NCCCl)N1CCC(CN=c2cc3n(-c4ccc(Cl)cc4)c4ccccc4nc-3cc2Nc2ccc(Cl)cc2)CC1,INH-r,MIC,-,-,-,-,-,0.1 µg/mL
Nc1ncccc1/C=C/C(=O)c1ccc2c(c1)-c1ccccc1C2,-,inhibition,-,-,-,-,12.5 µg/mL,53%
CC1=CC(=O)C(C(C)C)=CC1=O,H37Rv,MIC,-,-,-,BACTEC,-,16 µg/mL
CCC1CN(c2c(F)cc3c(=O)c(C(=O)O)cn(C4CC4)c3c2OC)CCN1,Isolate TN7834,MIC,-,-,-,-,-,0.1 µg/mL

Repeating the final 5 entries:

| SMILES | strain | read-out | changes | cell line | conditions | method | dose | result |
|---|---|---|---|---|---|---|---|---|
| C/C(=N\NC(=O)c1ccncc1)c1ccccc1F | H37Rv (thiacetazone-resistant) | MIC | - | - | - | - | - | >31.25 µg/mL |
| O=C(NCCCl)N1CCC(CN=c2cc3n(-c4ccc(Cl)cc4)c4ccccc4nc-3cc2Nc2ccc(Cl)cc2)CC1 | INH-r | MIC | - | - | - | - | - | 0.1 µg/mL |
| Nc1ncccc1/C=C/C(=O)c1ccc2c(c1)-c1ccccc1C2 | - | inhibition | - | - | - | - | 12.5 µg/mL | 53% |
| CC1=CC(=O)C(C(C)C)=CC1=O | H37Rv | MIC | - | - | - | BACTEC | - | 16 µg/mL |
| CCC1CN(c2c(F)cc3c(=O)c(C(=O)O)cn(C4CC4)c3c2OC)CCN1 | Isolate TN7834 | MIC | - | - | - | - | - | 0.1 µg/mL |